Measured values from several laboratories, pooled; numbers as filed in NIAID ChemDB.

Common to all: tests in culture; species: Mycobacterium abscessus

Lines come from different laboratories, so protocols vary. Zones are inhibition diameters on agar. An empty or dashed field is not shown. a–b is a range or a potency band. MIC50, MIC90 and the like: level of inhibition, or share of isolates inhibited. ECn: concentration that inhibits the pathogen or its effect by n%.

structure | read by | endpoint | mutations | strain or isolate | dose | value
CCCCCCCCCCCCCCC(=O)NC(CCC(=O)O)(CCC(=O)O)CCC(=O)O |  | MIC |  | AAy-P-1 |  | 144 µg/mL
NCCS | broth dilution / visual reading | MIC100 |  | DSM44196 |  | 62.5–125 µg/mL
CCCCCCCCCCCC(CCCCCCCCCCC)NC(=O)NC(CCC(=O)O)(CCC(=O)O)CCC(=O)O |  | MIC |  | AAy-P-1 |  | 27 µg/mL
C[C@@H](O)[C@H]1C(=O)N2C(C(=O)O)=C(S[C@@H]3CCCN3C3CCOCC3)S[C@H]12 | visual reading | MIC |  | L948 |  | 4 µg/mL
CC[C@H]1OC(=O)[C@H](C)[C@@H](O[C@H]2C[C@@](C)(OC)[C@@H](O)[C@H](C)O2)[C@H](C)[C@@H](O[C@@H]2O[C@H](C)C[C@H](N(C)C)[C@H]2O)[C@](C)(OC)C[C@@H](C)C(=O)[C@H](C)[C@@H](O)[C@]1(C)O | broth dilution | MIC |  | CIP 104536 |  | 4 µg/mL
CC(C)N=c1cc2n(-c3ccc(Cl)cc3)c3ccccc3nc-2cc1Nc1ccc(Cl)cc1 | broth dilution | MIC50 |  | Clinical isolate |  | ≤0.5 µg/mL
O=c1cc(-c2ccccc2)c2ccc(Cl)cc2o1 | resazurin | MIC90 |  | ATCC 19977 |  | >100 µg/mL
CCCCCCCCCCCCCCCCCCCCC(=O)NC(C)(CCC(=O)O)CCC(=O)O |  | MIC |  | AAy-P-1 |  | 6.8 µg/mL
CCN1CCc2c(sc(NC(=O)c3c(F)c(F)c(F)c(F)c3F)c2C(=O)NC)C1 | resazurin / turbidity | EC50 |  | bolletii 103 |  | >100 µM
C[C@H](O)[C@H]1C(=O)N2C(C(=O)O)=C(S[C@@H]3CN[C@H](C(=O)N(C)C)C3)[C@H](C)[C@H]12 | broth dilution / visual reading | MIC90 |  |  |  | >64 µg/mL
C[C@@H](O)[C@H]1C(=O)N2C(C(=O)O)=C(S[C@H]3CCCN3)S[C@H]12 | visual reading | MIC |  | L948 |  | 2 µg/mL
NC(=O)c1c(NC(=O)c2c(F)c(F)c(F)c(F)c2F)sc2c1CCOC2 | turbidity | EC50 |  |  |  | 68 µM
CCCCCCCCCCCCCCCCCCOC(=O)NC(C)(CCC(=O)O)CCC(=O)O |  | MIC |  | AAy-P-1 |  | 18 µg/mL
COc1cc(CC(=O)CO)c(C=O)c(O)c1C | visual reading | EC50 |  |  |  | 100 µg/mL
CCOC(=O)c1c(NC(=O)c2c(F)c(F)c(F)c(F)c2F)sc2c1CCNC2=O | resazurin / turbidity | MIC |  | bolletii 103 |  | >200 µM
CCCCCCCCCCCCCC(=O)NC(CCC(=O)O)(CCC(=O)O)CCC(=O)O |  | MIC |  | AAy-P-1 |  | 144 µg/mL
Cc1c(C)c(C)[c-](C)c1C.N[C@H](C(=O)[O-])c1ccccc1.[Cl][Rh+2] |  | MIC |  | AAy-P-1 |  | 15 µg/mL
CCCCCCCCCCCCCCCCCCCCCOC(=O)NC(CCC(=O)O)(CCC(=O)O)CCC(=O)O |  | MIC |  | AAy-P-1 |  | 4.5 µg/mL
CCN1CCc2c(sc(NC(=O)c3c(F)c(F)c(F)c(F)c3F)c2C(N)=O)C1 | resazurin / turbidity | EC90 |  | bolletii 103 |  | >200 µM
CCCCCC1=NN(C(=O)CCOC(=O)CCC(=O)O)OC(CCCCC)C1 | agar diffusion | zone | IMP CIP PEN resistant | Clinical Isolate 690 | 200 µg/disc | 32 mm
CCNC(=O)c1c(NC(=O)c2c(F)c(F)c(F)c(F)c2F)sc2c1CCN(CC)C2 | resazurin / turbidity | MIC |  | bolletii 103 |  | >200 µM
CCCCCCCCCCC(CCCCCCCCCC)OC(=O)NC(CCC(=O)O)(CCC(=O)O)CCC(=O)O |  | MIC |  | AAy-P-1 |  | 18 µg/mL
CCOC(=O)c1c(NC(=O)c2c(F)c(F)c(F)c(F)c2F)sc2c1CCNC2 | turbidity | EC90 |  |  |  | 1.7 µM
CCCCCCCCCCCCCCCCCCCCNC(=O)NC(CCC(=O)O)(CCC(=O)O)CCC(=O)O |  | MIC |  | AAy-P-1 |  | 4.5 µg/mL

A second listing of 3 rows from above:

structure	read by	endpoint	mutations	strain or isolate	dose	value
NC(=O)c1c(NC(=O)c2c(F)c(F)c(F)c(F)c2F)sc2c1CCOC2	turbidity	EC50				68 µM
CCCCCCCCCCCC(CCCCCCCCCCC)NC(=O)NC(CCC(=O)O)(CCC(=O)O)CCC(=O)O		MIC		AAy-P-1		27 µg/mL
NCCS	broth dilution / visual reading	MIC100		DSM44196		62.5–125 µg/mL